# Laboratory results: patent publication US20230265217A1 (TWIST BIOSCIENCE, published 2023)
# B1: Bispecific Antibody 2 (bispecific antibody)
# chain: EVQLVESGGGLVQPGGSLRLSCAASGFTFSPSWMGWFRQAPGKEREFVATINEYGGRNYADSVKGRFTISADNSKNTAYLQMNSLKPEDTAVYYCARVDRDFDYWGQGTLVTVSSGGGGS[gap - human IgG1 Fc with C220S (EU numbers)]GGGSGGGGSASEVQLVESGGGLVQPGGSLRLSCAASGSTFSINAMGWFRQAPGKEREFVAGITSSGGYTNYADSVKGRFTISADNSKNTAYLQMNSLKPEDTAVYYCAADGVPEYSDYASGPVWGQGTLVTVSS
# notes: also called Bi-Ab2; Bi-Ab2_ExpiCHO
# B2: Bispecific Antibody 1 (bispecific antibody)
# chain: EVQLVESGGGLVQPGGSLRLSCAASGSTFSINAMGWFRQAPGKEREFVAGITSSGGYTNYADSVKGRFTISADNSKNTAYLQMNSLKPEDTAVYYCAADGVPEYSDYASGPVWGQGTLVTVSSGGGGSGGGGSASEVQLVESGGGLVQPGGSLRLSCAASGFTFSPSWMGWFRQAPGKEREFVATINEYGGRNYADSVKGRFTISADNSKNTAYLQMNSLKPEDTAVYYCARVDRDFDYWGQGTLVTVSSGGGGS[gap - human IgG1 Fc with C220S (EU numbers)]
# notes: also called Bi-Ab1; Bi-Ab1_ExpiCHO
# Key:
# [1] = target: T1, SARS-CoV-2 S1 [S1N-C52H4] (SARS-CoV-2); experiment: Carterra SPR
# T1 construct: domain: S1
# [2] = target: SARS-CoV-2 S protein trimer [SPN-C52H7] (SARS-CoV-2); experiment: Carterra SPR
Binder,Kd [1] [nM],koff [1] [s⁻¹],kon [1] [M⁻¹ s⁻¹],kon [2] [M⁻¹ s⁻¹]
B1,1.24,0.000362,293000,285000
B2,0.181,5.39e-05,297000,483000
